Experimental findings from patent publication US8884000B2 (priority 2010, dated 2014) are described below.

Sequences of proteins named here, by UniProt entry; tags and fusion partners are left off. A change or cut given only in a name is not applied to a line headed by its entry.
UniProt Q2QEH4: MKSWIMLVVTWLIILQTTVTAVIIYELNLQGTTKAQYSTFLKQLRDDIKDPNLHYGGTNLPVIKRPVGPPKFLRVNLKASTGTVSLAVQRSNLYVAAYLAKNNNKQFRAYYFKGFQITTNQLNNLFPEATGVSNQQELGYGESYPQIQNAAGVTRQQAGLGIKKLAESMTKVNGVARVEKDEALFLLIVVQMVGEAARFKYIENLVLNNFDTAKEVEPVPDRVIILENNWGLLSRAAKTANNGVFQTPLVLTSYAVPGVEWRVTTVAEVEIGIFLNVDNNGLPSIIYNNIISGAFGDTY

This assay concerns the target saporin-L1 (Saponaria officinalis, UniProt Q2QEH4).

With 5′-CGCGAGAGCG-3′, the Michaelis constant (Km) stood at 95 µM, the “fold faster depurination (kcat) than poly(A) RNA” value amounted to 10 fold, the “fold increased catalytic efficiency (kcat/Km) versus poly(A) RNA” value was 45 fold and the “fold lower Km with saporin-L1 than with saporin-S6” value was found to be 4 fold. The “fold more efficient (kcat/Km) depurination by saporin-L1 than by saporin-S6” value was found to be 4.800 fold, the “fold tighter (Km) than poly(A) RNA” value amounted to 4.5 fold and the “times faster catalysis (kcat) by saporin-L1 than by saporin-S6” value is “approximately 1,500 times”.
